Assay results from US7022734B2, “Treatment of septic shock” (dated 2006).
“And” between values parts separate entries of the source, which are not always exact repeats. Equal entries are not always repeated.

Test system: endotoxin-induced fulminate septic shock
Experiment: C. parvum/LPS-induced septic shock in mice (Mouse Acute Septic-Shock model), survival
Settings: male CD-1 mice, 2 hours before and at the time of endotoxin injection
[1] = route IV, dose 10 mg/kg, 10 mg/kg

Row | Substance | % Survival at 48 hrs (route IP, dose 1 mg/kg) [%] | Survivors/Total at 48 hrs (route IP, dose 1 mg/kg) | % Survival at 48 hrs (route IP, dose 10 mg/kg) [%] | Survivors/Total at 48 hrs (route IP, dose 10 mg/kg) | % Survival at 48 hrs (route IV, dose 1 mg/kg) [%] | Survivors/Total at 48 hrs (route IV, dose 1 mg/kg) | % Survival at 48 hrs (route IV, dose 10 mg/kg) [%] | Survivors/Total at 48 hrs (route IV, dose 10 mg/kg) | other results
1 | Tris(ethylenediamine)nickel(II) sulphate | – | – | – | – | – | – | – | – | % Survival at 48 hrs [1]: 62.5% and 75%; Survivors/Total at 48 hrs [1]: 5/8 and 6/8
2 | Tris(acetylacetonate manganese: III) | 62.5 | 5/8 | 37.5 | 3/8 | – | – | – | – | –
3 | Ferrioxamine B | – | – | – | – | – | – | – | – | % Survival at 48 hrs (route IV, dose 5 mg/kg): 87.5%; Survivors/Total at 48 hrs (route IV, dose 5 mg/kg): 7/8
4 | 1,1′-ferrocenedimethanol | 62.5 | 5/8 | 75 | 6/8 | – | – | – | – | –
5 | Hexaaminenickel(II)chloride | 50 | 4/8 | 50 | 4/8 | – | – | – | – | –
6 | Bathopheneanthroline disulphonic acid | – | – | – | – | 87.5 | 7/8 | 25 | 2/8 | –
7 | Iron(III)citrate | – | – | – | – | 62.5 | 5/8 | 50 | 4/8 | –
8 | Ethyl α-acetyl-4-(methoxycarbonyl)benzoylacerate, copper(II) | 62.5 | 5/8 | 37.5 | 3/8 | – | – | – | – | –
9 | Ferric pyridoxal isonicanoyl hydrazone | – | – | 75 | 6/8 | – | – | – | – | –
10 | Ferrous gluconate | – | – | – | – | 37.5 | 3/8 | 75 | 6/8 | –
11 | Diethylenetriaminepentaacetic acid iron(III) | – | – | – | – | 100 | 8/8 | 50 | 4/8 | –
